This note sets out measurements from publication PMC3465485 (Antiviral research, 2012).

By IC50 is commonly meant the concentration needed to halve the response being measured. Low readings indicate higher potency, high ones lower potency.

Data set [1] addresses A/California/07/2009 neuraminidase (Influenza A virus (A/California/07/2009(H1N1)), UniProt C3W6G3). It is filed as biochemical.
Data set [2] concerns influenza A/California/07/2009 (H1N1) virus.

Bounds are passed on as bounds.

Regarding `CCC(CC)O[C@@H]1C=C(C(=O)O)C[C@H](N)[C@H]1NC(C)=O` [Oseltamivir Carboxylate, Oseltamivir carboxylate], it took 10.5 ± 1.3 nM to reach half-maximal inhibition in data set [1] (IC50). The “SI (CC50/EC50)” value in data set [2] is recorded as greater than 1667.
